Anti-infective test results gathered from many reports (values: NIAID ChemDB through PubChem).

Shared fields: toxicity to cultured cells; endpoint: CC50

Lines come from different laboratories, so protocols vary.

compound,method,cells,value
COc1cc(O)c2c(c1O)C1O[C@]3(C)C[C@H]1[C@@H](CO3)C2=O,MTT,SupT1,250.4 µg/mL
Nc1nc(Cc2ccc(O)cc2)cc(C2CCN(C(=O)c3ccc4c(c3)OCO4)CC2)n1,-,Jurkat cells (PMA-stimulated),>5 µM
O=c1cc(OCc2ccc(Cl)cc2)oc2ccc(OCc3cccc(Cl)c3)c(O)c12,MTT,Hs27,>50 µM
CCCCNc1cccc2c(-c3ccnc(N4CCN(CCOC)CC4)n3)c(-c3ccc(F)cc3)nn12,-,VERO 76,58 µM
NC(=S)Nc1cccc(OCCCCOc2ccccc2-c2ccccc2)c1,MTS,Ava5-EG(delta4AB)SEAP,>1 µM
O=c1cc(OCc2cc(Cl)cc(Cl)c2)oc2ccc(OCc3cccc(Cl)c3)c(O)c12,MTT,Hs27,>50 µM
CCCCNc1cccc2c(-c3ccnc(NC4CC4)n3)c(-c3ccc(F)cc3)nn12,-,VERO 76,126 µM
COC(=O)[C@H](C)NP(=O)(OC[C@H]1C/C1=C/n1cnc2c(OC)nc(N)nc21)Oc1ccccc1,-,MEF,126 µM
COc1ccc(Cc2cc(C3CCN(Cc4ccc5c(c4)OCO5)CC3)nc(N)n2)cc1,-,Jurkat cells (PMA-stimulated),>5 µM
Nc1nccc(-c2c(-c3ccc(F)cc3)nn3c(NC4CCCC4)cccc23)n1,-,VERO 76,>40 µM
CC(=O)OCC12CCC3C(CCC4CC(O)CCC43C)C1CC(O)C21OC1C(OC(C)=O)C(C)C(C)C(C)(C)OC(C)=O,MTT,P-388,>50 µg/mL
BrC(Br)=Cc1ccc2ccccc2n1,MTT,CEM-4fx,5.3 µM
C=CCNc1cccc2c(-c3ccnc(NCCCC)n3)c(-c3ccc(F)cc3)nn12,-,VERO 76,>40 µM
COc1cc(O)c2c(c1O)C(=O)c1cc(C)ncc1C2=O,MTT,MDA-MB-231,75.6 µg/mL
Nc1nc2c(ncn2COC(CO)CO)c(=O)[nH]1,-,GPE,700 µM
N#Cc1cccc(OCCCCCOc2cccc(NC(N)=S)c2)c1,MTS,Ava5-EG(delta4AB)SEAP,>1 µM
Nc1nc(N)c2ncn(C=C3CC3CO)c2n1,-,MEF,293 µM
COc1ccc(Cc2cc(C3CCN(C(=O)Cc4ccc5c(c4)OCO5)CC3)nc(N)n2)cc1,-,Jurkat cells (PMA-stimulated),>5 µM
CCCCCNC(=S)Nc1ccc2c(c1)Cc1cc(Br)ccc1-2,MTS,Ava5-EG(delta4AB)SEAP,>1 µM
CCCCNc1cccc2c(-c3ccnc(N4CCCC4)n3)c(-c3ccc(F)cc3)nn12,-,VERO 76,>160 µM
COc1ccc(Cc2cc(C3CCN(C(=O)c4ccc5c(c4)OCO5)CC3)on2)cc1,-,Jurkat cells (PMA-stimulated),>5 µM
C(=C\c1ccc2ccccc2n1)/c1ccc2ccccc2n1,MTT,CEM-4fx,>300 µM
COc1ccc2c(O[C@@H]3C[C@H]4C(=O)N[C@]5(C(=O)NS(=O)(=O)C6CC6)C[C@H]5/C=C\CCCCN(C)C(=O)[C@@H]4C3)cc(-c3nc(C(C)C)cs3)nc2c1C,-,Huh7-SGcon1b,>42 µM
COC1(OC)CCC2(C)C(CCC3C2CCC2(COC(C)=O)C3CC(O)C23OC3C(OC(C)=O)C(C)C(C)C(C)(C)O)C1,MTT,HT-29,>50 µg/mL
CC(C)N(Cc1cccc(OCCCCCC(=O)OC(=O)O)c1)C(=O)c1ccc(-c2cccc(-c3ccccc3)c2)cc1,-,HEK 293,>20 µM
CCCCCCCCCCCCCCc1ccc2ccccc2n1,MTT,CEM-4fx,110 µM
CCOC(=O)CCCCCOc1cccc(CN(C(=O)c2ccc(-c3ccc(Cl)c(Cl)c3)cc2)C(C)C)c1,-,BJ,>20 µM
COc1ccc(Cc2cc(C3CCN(C(=O)c4ccccc4)CC3)nc(N)n2)cc1,-,Jurkat cells (PMA-stimulated),>5 µM
NC(=S)Nc1ccc(OCCCCCOc2ccc(Cl)cc2Cl)cc1,MTS,Ava5-EG(delta4AB)SEAP,>1 µM
COc1ccc(Cc2cc(C3CCN(C(=O)c4ccc5c(c4)OCO5)CC3)nc(Cl)n2)cc1,-,Jurkat cells (PMA-stimulated),0.7 µM
C=C(C)[C@@H]1CCC2(C(=O)OC)CC[C@]3(C)C(CCC4[C@@](C)(CC#N)C(C(C)(C)C(=O)NCC(=O)OCC)CC[C@]43C)C12,MTT,MS,>100 µM
CC(C)N(Cc1cccc(OCCCCCC(=O)OC(=O)O)c1)C(=O)c1ccc(-c2ccc(Cl)c(Cl)c2)cc1,-,HEK 293,>20 µM
NC(=S)Nc1ccccc1OCCCCCc1ccccc1,MTS,Ava5-EG(delta4AB)SEAP,>1 µM
CCCCCCCCCCCCCCCCc1ccc2ccccc2n1,MTT,CEM-4fx,>300 µM
NC(=S)Nc1cccc(OCCCCCOc2ccc(N3CCCCC3)cc2)c1,MTS,Ava5-EG(delta4AB)SEAP,>1 µM
Nc1nc(NC2CC2)c2ncn(C=C3CC3CO)c2n1,-,MEF,220 µM
COC(=O)/C=C/c1ccc2ccccc2n1,MTT,CEM-4fx,>100 µM
CCc1nc(CCC(=O)O)cnc1CCC(=O)O,MTT,HL-60,>40 µg/mL
Nc1ncnc2c1ncn2[C@H]1C[C@]12C[C@H]2CO,-,BSC-1,>100 µM
C[C@H](O)Cc1cc2c(O[C@H]3O[C@H](CO)[C@@H](O)[C@H]3O)ccc(O)c2c(=O)o1,MTT,SW-480,>40 µg/mL
O=C(Nc1cc(C(F)(F)F)ccc1N1CCCCC1)c1ccncc1,MTS,Huh7/Rep-Feo1b,>30 µM
COc1nc(N)nc2c1ncn2/C=C1/C[C@H]1CO,-,MEF,261 µM
CC(C)N(Cc1cccc(OCCCCCC(=O)OC(=O)O)c1)C(=O)c1ccc(-c2ccncc2)cc1,-,HEK 293,>20 µM
COC1=CC(=O)c2c(O)c(C)c3cc(C)oc3c2C1=O,MTT,Panc-1,2.6 µg/mL

Repeating the first 6 entries:

compound	method	cells	value
COc1cc(O)c2c(c1O)C1O[C@]3(C)C[C@H]1[C@@H](CO3)C2=O	MTT	SupT1	250.4 µg/mL
Nc1nc(Cc2ccc(O)cc2)cc(C2CCN(C(=O)c3ccc4c(c3)OCO4)CC2)n1	-	Jurkat cells (PMA-stimulated)	>5 µM
O=c1cc(OCc2ccc(Cl)cc2)oc2ccc(OCc3cccc(Cl)c3)c(O)c12	MTT	Hs27	>50 µM
CCCCNc1cccc2c(-c3ccnc(N4CCN(CCOC)CC4)n3)c(-c3ccc(F)cc3)nn12	-	VERO 76	58 µM
NC(=S)Nc1cccc(OCCCCOc2ccccc2-c2ccccc2)c1	MTS	Ava5-EG(delta4AB)SEAP	>1 µM
O=c1cc(OCc2cc(Cl)cc(Cl)c2)oc2ccc(OCc3cccc(Cl)c3)c(O)c12	MTT	Hs27	>50 µM

Blank or dashed fields: not listed here. CCn: concentration that lowers growth or viability of the cells by n%.